Results as given in patent US10195189B2, “2-phenethenyltetrahydro isoquinolines useful as anti-HIV compounds” (priority 2014, dated 2019).

These molecules were tested on HIV-1 NL4-3 viral clone expressing Renilla luciferase. Conditions: ratio of CC50 over EC50.
Format: cell-based
Outline: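 MT-2 cells (2×10^4/well) were infected at MOI 0.027 with Renilla-luciferase HIV-1 NL4-3 alongside 3-fold compound dilutions for 96 h. Spread was read by EnduRen luminescence and supernatant infectivity on TZM-bl (48 h, MUG fluorescence). Mock-infected cytotoxicity used AlamarBlue. % inhibition versus solvent was fitted by 4-parameter logistic (0–100% constrained) for EC50/CC50.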

SMILES	SI
COc1ccc(/C=C/C2c3cc(OC)c(OCc4ccccc4)cc3CCN2C)cc1OCc1ccccc1 (stereo not shown) [Example V, 6-benzyloxy-1-[(E)-2-(3-benzyloxy-4-methoxy-phenyl)vinyl]-7-methoxy-2-methyl-3,4-dihydro-1H-isoquinoline]	8.5
CCN1CCN(c2ccc(/C=C/C3NCCc4cc(OCc5ccccc5)c(OC)cc43)cc2)CC1 (stereo not shown) [DO, (E)-6-(benzyloxy)-1-(4-(4-ethylpyrazin-1-yl)styryl)-7-methoxy-1,2,3,4-tetrahydroisoquinoline]	7.3
COc1cc2c(cc1OCc1ccccc1)CCNC2/C=C/c1cccc(C(=O)O)c1 (stereo not shown) [ER, 3-[(E)-2-(6-benzyloxy-7-methoxy-1,2,3,4-tetrahydroisoquinolin-1-yl)vinyl]benzoic acid]	1
CCOC(=O)c1ccccc1/C=C/C1NCCc2cc(OCc3ccccc3)c(OC)cc21 (stereo not shown) [ET, Ethyl 2-[(E)-2-(6-benzyloxy-7-methoxy-1,2,3,4-tetrahydroisoquinolin-1-yl)vinyl]benzoate]	4
COc1cc(OC)c(/C=C/C2NCCc3cc(OCc4ccccc4)c(OC)cc32)cc1C (stereo not shown) [EH, 6-Benzyloxy-1-[(E)-2-(2,4-dimethoxy-5-methyl-phenyl)vinyl]-7-methoxy-1,2,3,4-tetrahydroisoquinolin]	54.5
COc1cc2c(cc1OCc1ccccc1)CCNC2/C=C/c1ccc(OC)c(C(F)(F)F)c1 (stereo not shown) [CY, (E)-6-(Benzyloxy)-7-methoxy-1-(4-methoxy-3-(trifluoromethyl)styryl)-1,2,3,4-tetrahydroisoquinoline]	5.7
COc1cc(OC)c(OC)cc1/C=C/C1NCCc2cc(OCc3ccccc3)c(OC)cc21 (stereo not shown) [AQ, 6-Benzyloxy-7-methoxy-1-[(E)-2-(2,4,5-trimethoxyphenyl)vinyl]-1,2,3,4-tetrahydroisoquinoline]	131.1
CCOC(=O)c1coc(-c2cccc(/C=C/C3NCCc4cc(OCc5ccccc5)c(OC)cc43)c2)n1 (stereo not shown) [EF, Ethyl 2-[3-[(E)-2-(6-benzyloxy-7-methoxy-1,2,3,4-tetrahydroisoquinolin-1-yl)vinyl]phenyl]oxazole-4-carboxylate]	6
COc1ccc(/C=C/C2NCCc3cc(OCc4ccccc4)c(OC)cc32)c(OC)c1 (stereo not shown) [AV, 6-Benzyloxy-1-[(E)-2-(2,4-dimethoxyphenyl)vinyl]-7-methoxy-1,2,3,4-tetrahydroisoquinoline]	39.3
CCCCN1CCc2cc(OC)c(OCc3ccccc3)cc2C1/C=C/c1ccc(OCc2ccccc2)c(OC)c1 (stereo not shown) [Example D, 7-Benzyloxy-1-[(E)-2-(4-benzyloxy-3-methoxy-phenyl)vinyl]-2-butyl-6-methoxy-3,4-dihydro-1H-isoquinoline]	>1.1
COc1ccc(/C=C/C2NCCc3cc(OCc4ccccc4)c(OC)cc32)cc1OC (stereo not shown) [BQ, 6-Benzyloxy-1-[(E)-2-(3,4-dimethoxyphenyl)vinyl]-7-methoxy-1,2,3,4-tetrahydroisoquinoline]	43.5
COc1ccc(/C=C/C2NCCc3cc(OCc4ccccc4)c(OC)cc32)c(C(F)(F)F)c1 (stereo not shown) [Example Z, 6-benzyloxy-7-methoxy-1-[(E)-2-[4-methoxy-2-(trifluoromethyl)phenyl]vinyl]-1,2,3,4-tetrahydroisoquinoline]	17.1
COc1cc2c(cc1OCc1ccccc1)CCNC2/C=C/c1cscn1 (stereo not shown) [DR, 6-(Benzyloxy)-7-methoxy-1-[(E)-2-(1,3-thiazol-4-yl)ethenyl]-1,2,3,4-tetrahydroisoquinolin]	5.3
COc1cc2c(cc1OC)C(/C=C/c1cc(OCc3ccccc3)c(OC)cc1C)NCC2 (stereo not shown) [Example C, 1-[(E)-2-(5-Benzyloxy-4-methoxy-2-methyl-phenyl)vinyl]-6,7-dimethoxy-1,2,3,4-tetrahydroisoquinoline]	1.1
COc1cc2c(cc1OCc1ccccc1)CCNC2/C=C/c1ccc2c(c1)OC(F)(F)O2 (stereo not shown) [DF, (E)-6-(benzyloxy)-1-(2-(2,2-difluorobenzo[d][1,3]dioxol-5-yl)vinyl)-7-methoxy-1,2,3,4-tetrahydroisoquinoline]	1.8
COc1cc2c(cc1OCc1ccccc1)CCNC2/C=C/c1ccc(N2CCCCC2)cc1 (stereo not shown) [EA, 6-Benzyloxy-7-methoxy-1-[(E)-2-[4-(1-piperidyl)phenyl]vinyl]-1,2,3,4-tetrahydroisoquinoline]	2.3
COc1cc2c(cc1OCc1ccccc1)CCNC2/C=C/c1cc(C(C)C)c(OC)cc1C (stereo not shown) [BW, 6-Benzyloxy-1-[(E)-2-(5-isopropyl-4-methoxy-2-methyl-phenyl)vinyl]-7-methoxy-1,2,3,4-tetrahydroisoquinoline]	2.2
COc1ccc(/C=C/C2NCCc3cc(OCc4ccccc4)c(OC)cc32)c(F)c1 (stereo not shown) [BR, 6-Benzyloxy-1-[(E)-2-(2-fluoro-4-methoxy-phenyl)vinyl]-7-methoxy-1,2,3,4-tetrahydroisoquinoline]	8.77
COc1cc2c(cc1OCc1ccccc1)CCNC2/C=C/c1ccc(-c2cccnc2)cc1 (stereo not shown) [DJ]	15
CCn1cc(/C=C/C2NCCc3cc(OCc4ccccc4)c(OC)cc32)cn1 (stereo not shown) [Example AL, 6-Benzyloxy-1-[(E)-2-(1-ethylpyrazol-4-yl)vinyl]-7-methoxy-1,2,3,4-tetrahydroisoquinoline]	8.2
COc1cc2c(cc1OCc1ccccc1)CCNC2/C=C/c1ccc(N2CCN(C)CC2)cc1 (stereo not shown) [DW, 6-(Benzyloxy)-7-methoxy-1-[(E)-2-[4-(4-methylpiperazin-1-yl)phenyl]ethenyl]-1,2,3,4-tetrahydroisoquinoline]	1.9
COc1cc(Cl)c(/C=C/C2NCCc3cc(OCc4ccccc4)c(OC)cc32)cc1OCc1ccccc1 (stereo not shown) [Example AC, 6-benzyloxy-1-[(E)-2-(5-benzyloxy-2-chloro-4-methoxy-phenyl)vinyl]-7-methoxy-1,2,3,4-tetrahydroisoquinoline]	21.8
COc1cc2c(cc1OCc1ccccc1)CCNC2/C=C/c1ccc2c(c1)CCCO2 (stereo not shown) [CB, 6-Benzyloxy-1-[(E)-2-chroman-6-ylvinyl]-7-methoxy-1,2,3,4-tetrahydroisoquinoline]	3.5
COc1ccc(OC)c(/C=C/C2NCCc3cc(OCc4ccccc4)c(OC)cc32)c1 (stereo not shown) [EK, 6-Benzyloxy-1-[(E)-2-(2,5-dimethoxyphenyl)vinyl]-7-methoxy-1,2,3,4-tetrahydroisoquinoline]	9.5
COc1cc2c(cc1OCc1ccccc1)CCNC2/C=C/c1nccs1 (stereo not shown) [DV, 6-(Benzyloxy)-7-methoxy-1-[(E)-2-(1,3-thiazol-2-yl)ethenyl]-1,2,3,4-tetrahydroisoquinoline]	0.74
COc1cc2c(cc1OCc1ccccc1)CCNC2/C=C/c1cc(OC)c(OC)c(OC)c1 (stereo not shown) [Example AM, 6-Benzyloxy-7-methoxy-1-[(E)-2-(3,4,5-trimethoxyphenyl)vinyl]-1,2,3,4-tetrahydroisoquinoline]	27.3
COc1cc2c(cc1OCc1ccccc1)CCNC2c1cc(OCc2ccccc2)c(OC)cc1C (stereo not shown) [AY, 6-(Benzyloxy)-1-(5-(benzyloxy)-4-methoxy-2-methylphenyl)-7-methoxy-1,2,3,4-tetrahydroisoquinoline]	1.1
COC(=O)N1CCc2cc(OCc3ccccc3)c(OC)cc2C1/C=C/c1ccc(OC)c(OCc2ccccc2)c1 (stereo not shown) [Example L, Methyl 6-benzyloxy-1-[(E)-2-(3-benzyloxy-4-methoxy-phenyl)vinyl]-7-methoxy-3,4-dihydro-1H-isoquinoline-2-carboxylate]	7.11
